PubChem BioAssay AID624099 – ICCB-Longwood, 2012
The whole screen tested about 21,000 reagents; this is a random part of them. 497 of all reagents (2.4%) were called active. 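Higher z means weaker E2 silencing; only reporter increases were scored, and knock-downs that hurt cell survival may mask genuine repressor factors.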 No sequences are given here.

- Aim: 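Knock-downs relieving repression by E2 of an HPV18 LCR luciferase reporter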 (primary screen)
- System: human C33A cervical carcinoma cells (HPV-negative) stably expressing BPV1 E2 and an HPV18 LCR luciferase reporter
- Reagent: siRNA pool against human genes, 40 nM
- Duration: 72 h
- Measurement: 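HPV18 LCR reporter light per well, converted to plate-wise z-scores that exclude control wells, and averaged over triplicate plates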
- Scale: mean z-score and z-score: higher = stronger reporter signal, weaker E2 silencing
- Call rule: 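Mean z ≥ 2 together with z ≥ 2 in two or more of the three replicates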

gene knocked down | mean z-score | z-score, replicate A | z-score, replicate B | z-score, replicate C | Outcome
H3C12 | -1.03 | -1.26 | -0.8 | -1.05 | inactive
ANKFN1 | 0.59 | 0.77 | 0.48 | 0.52 | inactive
PDE4D | -0.8 | -1.11 | -0.82 | -0.45 | inactive
SYNE4 | -0.18 | -0.18 | -0.24 | -0.12 | inactive
MYL2 | -0.18 | -0.46 | -0.03 | -0.03 | inactive
C16orf54 | -1.88 | -1.63 | -1.79 | -2.22 | inactive
ZC3H12C | -0.11 | -0.33 | 0.03 | -0.03 | inactive
RGS16 | -1.09 | -1.23 | -1.21 | -0.82 | inactive
ZNF225 | 0.1 | 0.27 | 0.19 | -0.17 | inactive
TMEM63B | -0.96 | -0.92 | -1.19 | -0.76 | inactive
DDX43 | -0.31 | -0.1 | -0.46 | -0.37 | inactive
MYH3 | 1.28 | 1.37 | 1.18 | 1.29 | inactive
LRRC52 | -0.59 | -0.55 | -0.49 | -0.73 | inactive
UBXN10 | 1.75 | 2.02 | 1.72 | 1.51 | inactive
PHYHIPL | -0.91 | -0.82 | -0.7 | -1.2 | inactive
MRPL36 | 0.32 | 0.01 | 0.47 | 0.46 | inactive

The list goes on (2 carried over from the part before).
gene knocked down | mean z-score | z-score, replicate A | z-score, replicate B | z-score, replicate C | Outcome
PHYHIPL | -0.91 | -0.82 | -0.7 | -1.2 | inactive
MRPL36 | 0.32 | 0.01 | 0.47 | 0.46 | inactive
TMEFF2 | 1.12 | 1.11 | 1.15 | 1.11 | inactive
PDSS1 | -0.18 | -0.35 | -0.1 | -0.08 | inactive
GPR25 | -1.15 | -0.96 | -1.03 | -1.44 | inactive
SMG8 | 0.29 | 0.34 | 0.01 | 0.52 | inactive
MMP9 | -0.08 | 0.08 | -0.19 | -0.12 | inactive
HCK | 0.48 | 0.31 | 0.55 | 0.58 | inactive
GTPBP8 | -0.6 | -0.72 | -0.7 | -0.37 | inactive
KRABD2 | -1.03 | -1 | -1.07 | -1.01 | inactive
MS4A1 | 0.41 | 0.23 | 0.51 | 0.48 | inactive
TP53TG3 | 0.75 | 0.77 | 0.84 | 0.64 | inactive
HRG | 0.8 | 1.23 | 0.92 | 0.24 | inactive
RNF144A | 0.2 | 0.12 | 0.19 | 0.28 | inactive
CADM3 | 0.53 | 0.69 | 0.94 | -0.05 | inactive
BIRC5 | 0.29 | 0.58 | 0.21 | 0.09 | inactive
ARHGDIG | 1.13 | 1.05 | 0.87 | 1.45 | inactive
SEPHS1P1 | -0.8 | -0.59 | -0.83 | -0.98 | inactive
RPL37A | -2.54 | -2.62 | -2.34 | -2.66 | inactive
TESMIN | 0.92 | 0.84 | 0.83 | 1.09 | inactive
LOC389328 (retired record) | 2.08 | 2.11 | 1.97 | 2.16 | active
CD2 | -0.53 | -0.47 | -0.49 | -0.64 | inactive
CARD8 | 1.98 | 1.52 | 1.77 | 2.66 | inactive
NMRAL1 | 1.29 | 1.42 | 1.36 | 1.09 | inactive
SSTR3 | 0.15 | 0.12 | -0.19 | 0.52 | inactive
